# Values from PubChem BioAssay AID624099 (ICCB-Longwood, 2012).
# Screen: 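Host factors E2 relies on to silence an HPV18 LCR reporter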 (primary screen)
# Cells: human C33A cervical carcinoma cells (HPV-negative) stably expressing BPV1 E2 and an HPV18 LCR luciferase reporter
# Reagent: siRNA pool against human genes, 40 nM
# Timing: 72 h
# Measurement: 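HPV18 LCR reporter light per well, converted to plate-wise z-scores that exclude control wells, and averaged over triplicate plates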
# Direction: mean z-score and z-score: higher = stronger reporter signal, weaker E2 silencing
# Call rule: 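Hit if mean z-score reaches 2 and two or more of three replicate z-scores also reach 2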
# Here is a random part of about 21,000 reagents. Of all reagents, 497 (2.4%) were called active. 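Higher z means weaker E2 silencing; only reporter increases were scored, and knock-downs that hurt cell survival may mask genuine repressor factors.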
gene knocked down,mean z-score,"z-score, replicate A","z-score, replicate B","z-score, replicate C",call
PDK2,-0.76,-0.79,-0.35,-1.13,inactive
LERFS,-0.05,-0.36,0.16,0.05,inactive
EXOC3,-1.63,-1.99,-1.46,-1.43,inactive
NWD2,-1.45,-1.5,-1.39,-1.46,inactive
ACTR10,1.1,1.36,0.95,1,inactive
RBM15,0.05,-0.3,0.44,0.01,inactive
SNAPC4,-0.36,-0.26,-0.54,-0.29,inactive
LOC158796 (retired record),-0.65,-0.89,-0.48,-0.56,inactive
GABRB3,0.47,0.61,0.66,0.15,inactive
LOC392528 (retired record),-1.91,-2.09,-1.89,-1.75,inactive
OTP,-1.52,-1.79,-1.48,-1.28,inactive
AMIGO3,0.48,0.77,0.02,0.65,inactive
CDC50A,-0.79,-0.62,-1.02,-0.73,inactive
ZNF609,0.01,-0.27,-0.16,0.45,inactive
LRBA,0.02,0.18,-0.15,0.02,inactive
SORL1,-2.36,-2.37,-2.24,-2.45,inactive
LAMA5,-1.04,-0.8,-1.07,-1.24,inactive
PLD4,-0.31,-0.58,-0.01,-0.33,inactive
C7,-0.62,-0.77,-0.37,-0.74,inactive
NKD2,-0.25,-0.45,-0.16,-0.14,inactive
RPS18,-2.01,-2.11,-2.06,-1.85,inactive
EEPD1,-0.35,-0.34,-0.37,-0.33,inactive
COQ10A,-1.26,-1.31,-1.24,-1.22,inactive
LOC389815 (retired record),-0.12,0.29,-0.17,-0.49,inactive

Laid out differently: entries from further up.
| gene knocked down | mean z-score | z-score, replicate A | z-score, replicate B | z-score, replicate C | call |
| --- | --- | --- | --- | --- | --- |
| SORL1 | -2.36 | -2.37 | -2.24 | -2.45 | inactive |
| LAMA5 | -1.04 | -0.8 | -1.07 | -1.24 | inactive |
| PLD4 | -0.31 | -0.58 | -0.01 | -0.33 | inactive |
| C7 | -0.62 | -0.77 | -0.37 | -0.74 | inactive |
| NKD2 | -0.25 | -0.45 | -0.16 | -0.14 | inactive |
| RPS18 | -2.01 | -2.11 | -2.06 | -1.85 | inactive |

The results go on:
gene knocked down,mean z-score,"z-score, replicate A","z-score, replicate B","z-score, replicate C",call
PARP14,-0.16,-0.38,-0.08,-0.02,inactive
LINC01566,1.39,1.52,1.37,1.28,inactive
NKAIN3,0.69,0.75,0.95,0.37,inactive
MORC3,0.75,0.64,0.64,0.98,inactive
LYSMD4,-1.17,-1.1,-1.46,-0.96,inactive
GEMIN8,0.5,0,0.61,0.88,inactive
CEP350,-0.12,-0.02,-0.02,-0.34,inactive
DNAAF5,-0.34,-0.49,-0.48,-0.06,inactive
PPP2R3B,-0.1,0.15,-0.29,-0.17,inactive
CRMA,0.15,-0.09,0.24,0.29,inactive
PITPNA,-1.68,-1.83,-1.32,-1.9,inactive
KLRC2,0.52,0.35,0.3,0.92,inactive
E2F6P4,-0.49,-0.62,-0.08,-0.78,inactive
GNLY,0.76,0.69,0.46,1.13,inactive
PAIP2,-0.58,-0.22,-0.91,-0.6,inactive
OXTR,-0.75,-0.9,-0.48,-0.87,inactive
NKG7,0.18,-0.07,0.21,0.39,inactive
TTC16,1.56,1.86,1.64,1.19,inactive
CELF1,1.74,1.68,1.37,2.18,inactive
CHERP,0.48,0.28,0.52,0.63,inactive
EDC4,-0.95,-0.91,-0.73,-1.23,inactive
FAM230B,0.12,0.26,0.02,0.07,inactive
LRRC3B,-1.88,-1.75,-2.05,-1.85,inactive
HOXA5,0.14,0.21,0.35,-0.12,inactive
CDIN1,-1.64,-1.85,-1.64,-1.42,inactive
GPR142,-0.45,-0.3,-0.51,-0.54,inactive
CYP7A1,0.92,0.73,0.87,1.16,inactive
ANKH,3.13,3.21,3.29,2.88,active
LINC00486,0.86,0.85,1.09,0.64,inactive
ZP3,-1.54,-1.58,-1.63,-1.42,inactive
LSM14A,0.14,0.22,-0.13,0.34,inactive
ZFP91,2.37,2.36,2.07,2.67,active
GLRA1,-0.5,-0.48,-0.55,-0.46,inactive
